{"source": "PubChem BioAssay AID624099 – ICCB-Longwood, 2012", "assay": "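Knock-downs relieving repression by E2 of an HPV18 LCR luciferase reporter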 (primary screen)", "cells": "human C33A cervical carcinoma cells (HPV-negative) stably expressing BPV1 E2 and an HPV18 LCR luciferase reporter", "reagents": "siRNA pool against human genes, 40 nM", "timing": "72 h", "measured": "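Per-well luciferase luminescence, z-scored on each plate against the plate mean and SD with control wells left out, then averaged across three replicate plates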", "direction": "mean z-score and z-score: higher = stronger reporter signal, weaker E2 silencing", "rule for the call": "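Hit if mean z-score reaches 2 and two or more of three replicate z-scores also reach 2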", "note": "This is one part, drawn at random, of about 21,000 deposited reagents. 497 of them (2.4%) count as active. 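Higher z means weaker E2 silencing; only reporter increases were scored, and knock-downs that hurt cell survival may mask genuine repressor factors.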"}
{"gene symbol":"CABCOCO1","mean z-score":-0.77,"z-score, replicate A":-0.93,"z-score, replicate B":-0.75,"z-score, replicate C":-0.62,"outcome":"inactive"}
{"gene symbol":"ACADS","mean z-score":0.31,"z-score, replicate A":0.62,"z-score, replicate B":-0.08,"z-score, replicate C":0.38,"outcome":"inactive"}
{"gene symbol":"LOC391749 (retired record)","mean z-score":-0.89,"z-score, replicate A":-0.71,"z-score, replicate B":-1.01,"z-score, replicate C":-0.96,"outcome":"inactive"}
{"gene symbol":"MOCOS","mean z-score":0.05,"z-score, replicate A":-0.03,"z-score, replicate B":0.1,"z-score, replicate C":0.07,"outcome":"inactive"}
{"gene symbol":"UBE2NL","mean z-score":-1.01,"z-score, replicate A":-0.94,"z-score, replicate B":-0.95,"z-score, replicate C":-1.14,"outcome":"inactive"}
{"gene symbol":"LOC401175 (retired record)","mean z-score":-0.25,"z-score, replicate A":-0.09,"z-score, replicate B":-0.52,"z-score, replicate C":-0.14,"outcome":"inactive"}
{"gene symbol":"MBNL2","mean z-score":-0.43,"z-score, replicate A":-0.44,"z-score, replicate B":-0.34,"z-score, replicate C":-0.51,"outcome":"inactive"}
{"gene symbol":"TMED5","mean z-score":0.09,"z-score, replicate A":0.35,"z-score, replicate B":-0.18,"z-score, replicate C":0.11,"outcome":"inactive"}
{"gene symbol":"PHKB","mean z-score":1,"z-score, replicate A":0.87,"z-score, replicate B":0.8,"z-score, replicate C":1.33,"outcome":"inactive"}
{"gene symbol":"GRIK1","mean z-score":0.65,"z-score, replicate A":0.68,"z-score, replicate B":0.69,"z-score, replicate C":0.58,"outcome":"inactive"}
{"gene symbol":"ZNF25","mean z-score":0.65,"z-score, replicate A":0.81,"z-score, replicate B":0.49,"outcome":"inactive"}
{"gene symbol":"ORMDL1","mean z-score":0.62,"z-score, replicate A":0.79,"z-score, replicate B":0.34,"z-score, replicate C":0.73,"outcome":"inactive"}
{"gene symbol":"KRTAP19-5","mean z-score":-1.25,"z-score, replicate A":-1.19,"z-score, replicate B":-1.16,"z-score, replicate C":-1.39,"outcome":"inactive"}
{"gene symbol":"LOC439938 (retired record)","mean z-score":0.57,"z-score, replicate A":0.47,"z-score, replicate B":1.47,"z-score, replicate C":-0.22,"outcome":"inactive"}
{"gene symbol":"USP32P2","mean z-score":-0.93,"z-score, replicate A":-1.19,"z-score, replicate B":-0.72,"z-score, replicate C":-0.88,"outcome":"inactive"}
{"gene symbol":"ABCA15P","mean z-score":-1.25,"z-score, replicate A":-1.3,"z-score, replicate B":-1.54,"z-score, replicate C":-0.92,"outcome":"inactive"}

The list goes on (2 carried over from the part before).
{"gene symbol":"USP32P2","mean z-score":-0.93,"z-score, replicate A":-1.19,"z-score, replicate B":-0.72,"z-score, replicate C":-0.88,"outcome":"inactive"}
{"gene symbol":"ABCA15P","mean z-score":-1.25,"z-score, replicate A":-1.3,"z-score, replicate B":-1.54,"z-score, replicate C":-0.92,"outcome":"inactive"}
{"gene symbol":"LOC389067 (retired record)","mean z-score":0.51,"z-score, replicate A":0.54,"z-score, replicate B":0.51,"z-score, replicate C":0.49,"outcome":"inactive"}
{"gene symbol":"FLT3LG","mean z-score":1.05,"z-score, replicate A":0.97,"z-score, replicate B":1.08,"z-score, replicate C":1.12,"outcome":"inactive"}
{"gene symbol":"ADGRL3","mean z-score":-0.2,"z-score, replicate A":-0.27,"z-score, replicate B":-0.15,"z-score, replicate C":-0.19,"outcome":"inactive"}
{"gene symbol":"SNRPD2P1","mean z-score":0.25,"z-score, replicate A":0.24,"z-score, replicate B":0.3,"z-score, replicate C":0.2,"outcome":"inactive"}
{"gene symbol":"RAB17","mean z-score":1.98,"z-score, replicate A":1.85,"z-score, replicate B":1.95,"z-score, replicate C":2.14,"outcome":"inactive"}
{"gene symbol":"CHORDC1","mean z-score":-0.61,"z-score, replicate A":-0.67,"z-score, replicate B":-0.59,"z-score, replicate C":-0.58,"outcome":"inactive"}
{"gene symbol":"KLHL20","mean z-score":0.51,"z-score, replicate A":0.6,"z-score, replicate B":0.47,"z-score, replicate C":0.46,"outcome":"inactive"}
{"gene symbol":"EPS8L3","mean z-score":-0.8,"z-score, replicate A":-0.76,"z-score, replicate B":-0.96,"z-score, replicate C":-0.7,"outcome":"inactive"}
{"gene symbol":"DNMT3B","mean z-score":-1.31,"z-score, replicate A":-0.69,"z-score, replicate B":-1.84,"z-score, replicate C":-1.4,"outcome":"inactive"}
{"gene symbol":"RTCB","mean z-score":-0.18,"z-score, replicate A":0.05,"z-score, replicate B":-0.79,"z-score, replicate C":0.22,"outcome":"inactive"}
{"gene symbol":"LEFTY1","mean z-score":-1.31,"z-score, replicate A":-0.92,"z-score, replicate B":-1.62,"z-score, replicate C":-1.39,"outcome":"inactive"}
